Reference: patent US20240327454A1, “DETERGENT AND METHOD FOR PURIFYING A BIOTHERAPEUTIC” (MEDIMMUNE, LLC, priority 2020, published 2024)

Tests used:
Host Cell Protein (HCP) [1] = assay: HCP clearance, detergent spiked into cell harvest material before LambdaFabSelect column, HCP ELISA; set-up: species or system CHO
Host Cell Protein (HCP) [2] = assay: HCP clearance, detergent wash on LambdaFabSelect column, HCP ELISA; set-up: species or system CHO; details: for HCP: LambdaFabSelect eluate; for Normalized Eluate Yield: normalized to 0.5M NaCl wash control

In the case of `CCCCCCCCCCCCOCCOCCOCCOCCOCCOCCOCCOCCOCCO` [Brij L9, 3,6,9,12,15,18,21,24,27-nonaoxanonatriacontan-1-ol], the HCP (Host Cell Protein (HCP) [1]; 2% detergent spike into cell harvest, LambdaFabSelect eluate) is reported as 1105 ng/mg, the “Normalized Eluate Yield” value (Host Cell Protein (HCP) [1]; 2% detergent spike, normalized to no detergent spike control) is reported as 1.0 and the HCP (Host Cell Protein (HCP) [2]; 1% detergent wash) is reported as 1924 ng/mg. The “Normalized Eluate Yield” value (Host Cell Protein (HCP) [2]; 1% detergent wash) was 1.00, the HCP (Host Cell Protein (HCP) [2]; 2% detergent wash) was 1646 ng/mg and the “Normalized Eluate Yield” value (Host Cell Protein (HCP) [2]; 2% detergent wash) was 1.01.
